Pooled drug test results. Numbers come from NIAID ChemDB, via PubChem.

All rows: tests on isolated targets; organism: Human cytomegalovirus; protein: Protease; read-out: IC50

Rows are shuffled and stem from different studies. ICn is the concentration giving n% inhibition. An empty or dashed field is not shown.

| SMILES | strain | method | result |
|---|---|---|---|
| O=C1C[C@H](Cc2cccs2)N1C(=O)NCc1ccc([N+](=O)[O-])cc1 |  |  | 1.3 µM |
| CC(C)NC(=O)N1C(=O)C[C@H]1Oc1ccc(C(=O)O)cc1 |  |  | >100 µM |
| CC[C@@H](NC(=O)N1C(=O)C[C@@H]1CSc1nccn1C)c1ccccc1 |  |  | 3.7 µM |
| Cc1ccc(CS(=O)c2nc3ccccc3[nH]2)c(N)c1C |  |  | 3.7 µM |
| CC(=O)N1C(=O)[C@H](C)[C@H]2[C@H]1CCN2C(=O)C1CCCN1S(=O)(=O)c1ccc(C)cc1 | AD169 |  | 14 µM |
| CC[C@@H](NC(=O)N1C(=O)C[C@@H]1CSc1ccccc1)c1ccccc1 |  |  | 2.6 µM |
| COc1ccc2nc(S(=O)(=O)Cc3c(N)cc(C)c(OC)c3C)[nH]c2c1 |  |  | >100 µM |
| Cn1nnc(C[C@H]2CC(=O)N2C(=O)NCc2ccc([N+](=O)[O-])cc2)n1 |  |  | 2.7 µM |
| CNC(=O)N1CCC1=O |  |  | >500 µM |
| COC(=O)[C@H](Cc1ccccc1)Nc1nc2ccc(NC(=O)C3CCC3)c(C)c2c(=O)o1 |  |  | 0.57 µM |
| CC1(C)CC(=O)C(C2=C(Cl)C(=O)c3ccccc3C2=O)C(=O)C1 |  | HPLC | 0.72 µM |
| Cc1cccc2nc(N[C@@H](Cc3c[nH]c4ccccc34)C(=O)OC(C)(C)C)oc(=O)c12 |  |  | 0.64 µM |
| O=C1C[C@H](Cc2nc3ccccc3[nH]2)N1C(=O)NCc1ccc([N+](=O)[O-])cc1 |  |  | >75 µM |
| CC(C)c1ccc(NC(=O)N2CCC[C@H]2C(=O)N2CC[C@H]3[C@H]2[C@H](C)C(=O)N3C(=O)c2nccs2)cc1 | AD169 |  | >24 µM |
| COC(=O)[C@@H](Nc1nc2cccc(C)c2c(=O)o1)C(C)C |  |  | 0.68 µM |
| CC[C@H](NC(=O)N1C(=O)C[C@@H]1CSc1ncccn1)c1ccccc1 |  |  | 17 µM |
| O=C1C[C@H](Cc2nccs2)N1C(=O)NCc1ccc([N+](=O)[O-])cc1 |  |  | 2.5 µM |
| COC(=O)[C@H](COCc1ccccc1)Nc1nc2ccc(NC(=O)OC(C)(C)C)c(C)c2c(=O)o1 |  |  | 0.82 µM |
| O=C1C[C@H](CSc2ncccn2)N1C(=O)N1CCC[C@H]1c1ccccc1 |  |  | 38 µM |
| COc1ccc2nc(SCc3c(N)cc(C)c(OC)c3C)[nH]c2c1 |  |  | 54 µM |
| O=C1C(Cl)=C(C2CCCCCC2)C(=O)c2ccccc21 |  | scintillation proximity | 110 µM |
| CC(C)c1ccc(NC(=O)N2CCC[C@H]2C(=O)N2CC[C@H]3[C@H]2[C@H](C)C(=O)N3C(=O)c2nc3ccccc3s2)cc1 | AD169 |  | >24 µM |

The first 3 rows once more:

SMILES,strain,method,result
O=C1C[C@H](Cc2cccs2)N1C(=O)NCc1ccc([N+](=O)[O-])cc1,,,1.3 µM
CC(C)NC(=O)N1C(=O)C[C@H]1Oc1ccc(C(=O)O)cc1,,,>100 µM
CC[C@@H](NC(=O)N1C(=O)C[C@@H]1CSc1nccn1C)c1ccccc1,,,3.7 µM